# Source: US20070054262A1, “Methods of identifying optimal variants of peptide epitopes” (priority 2003, published 2007)
# System: Env 134-specific T cell line
# Experiment: Env 134-specific T cell line (stimulated five times with the immunizing peptide): recognition and titration of variant peptides
# Type: cell-based, mouse
# Conditions: Env 134 line; IFN-γ
# Excerpt: Recognition after multiple restimulations The observed recognition of variant peptides by CTL raised against the parent peptide might be due to either promiscuous recognition at the level of a single TCR or simply a mixture of TCRs against the immunizing peptide which are each able to recognize subtly different peptides. To distinguish between these two possibilities, Env 134- or Gag 386-specific T cell lines were generated by stimulating five times with the immunizing peptide, and then tested for recognition of a partial panel of variant peptides. These T cell lines were also characterized for Vβ TCR usage against a panel of antibodies predicted to react with the TCR of the mouse strains utilized for these experiments.
# Because the SU is a measure of the number of cells needed to secrete a defined amount of IFN-γ, a higher SU value would correspond to an enrichment of IFN-γ, producing cells.
# Both lines were also characterized with regard to the affinity of certain of the variant peptides by titrating the variant peptides examined above (Table 5A and 5B).
sequence,measurement,value
KLTPLCVTL [Env 134],Peptide affinity for the TCR (titration against CTL stimulated 5 times with the parent peptide),highest affinity
